Compound potency records, mixed from different reports. Data source: NIAID ChemDB in PubChem.

All rows: growth or infection tests; species: HIV-2; cell line: MT-4; measure: EC50

An empty or dashed field is not shown. Rows are shuffled and stem from different studies. ECn is the concentration giving n% inhibition of infection, replication or growth.

smiles | strain or isolate | mutations | method | result
CCc1c(C(=O)c2cccc3ccccc23)n(CC=C(C)C)c(=O)[nH]c1=O | ROD | - | cytopathic effect / MTT | >36.33 µM
N=C(CNC(=O)NCCCNc1ccc2[nH]ccc2c1)N[N+](=O)[O-] | ROD | - | MTT | >375 µM
CCOC(=O)Cn1c(C(=O)c2cccc3ccccc23)c(C(C)C)c(=O)[nH]c1=O | ROD | - | cytopathic effect / MTT | >37.01 µM
O=C(O)C1=CC(=C(c2ccc(O)c(C(=O)O)c2)c2ccc(O)c(C(=O)O)c2)C=CC1=O | ROD | - | cytopathic effect / MTT | 2.26 µg/mL
NCCCCNc1ccc2[nH]ccc2c1 | ROD | - | MTT | >19.23 µM
O=c1ccn([C@H]2CC[C@@H](CO)O2)c(=O)[nH]1 | ROD | - | cytopathic effect / MTT | 43 µg/mL
O=c1[nH]c2c(c(=O)[nH]1)C(c1ccccc1)c1c([nH]c(=O)[nH]c1=O)O2 | EHO | - | cytopathic effect | 169.3 µM
Cc1ccnc2c1NC(=O)c1cccnc1N2C1CC1 | NIH-ZY-M | - | cytopathic effect / MTS | >10 µM
c1cc2cc(NCCNC3=NCCN3)ccc2[nH]1 | ROD | - | MTT | >88.57 µM
CC(C)c1c(C(=O)c2cccc3ccccc23)n(C/C=C/c2ccccc2)c(=O)[nH]c1=O | ROD | - | cytopathic effect / MTT | >21.23 µM
C1CNCCNCCCN[C@H]([C@H]2CNCCCNCCNCCCN2)CNC1 | ROD | - | cytopathic effect / MTT | 0.32 µg/mL
CCc1cc(NCc2nc3c(Cl)ccc(Cl)c3o2)c(=O)[nH]c1C | EHO | RT-S102L E219D | cytopathic effect / MTT | >71 µM
Cc1c(C(C)C2CCCCC2)nc(SCC(=O)c2ccc(O)cc2)[nH]c1=O | ROD | - | MTT | 13 µM
Cc1cn([C@@H]2C[C@@H](N=[N+]=[N-])[C@H](COC(=O)NCCCCNC(=O)OC[C@H]3O[C@@H](n4cc(C)c(=O)[nH]c4=O)C[C@@H]3N=[N+]=[N-])O2)c(=O)[nH]c1=O | ROD | - | cytopathic effect / MTT | 2.58 µM
O=C(N/N=C/c1ccc(Cl)cc1)c1csc(N2N=C(c3ccccc3)CC2c2ccc(Cl)cc2)n1 | ROD | - | MTT / absorbance | >125 µM
Cc1c(C(C)C2CCCCC2)nc(SCC(=O)c2ccccc2)[nH]c1=O | ROD | - | MTT | 259 µM
Cc1cc(C#Cc2ccc(C(=O)O)cc2)cc(C)c1Oc1ccnc(Nc2ccc(C#N)cc2)n1 | ROD | - | MTT | >25 µM
O=c1[nH]c(=S)[nH]c2c1C(c1ccc(Cl)cc1)c1c([nH]c(=S)[nH]c1=O)O2 | EHO | - | cytopathic effect | >137 µM
CC(=O)ON1COC[C@H]2O[C@@H](n3cc(C)c(=O)[nH]c3=O)C[C@@H]21 | ROD | - | trypan blue | 19 µg/mL
O=C(N/N=C/c1ccccc1)c1csc(N2N=C(c3ccccc3)CC2c2ccc(Cl)cc2)n1 | ROD | - | MTT / absorbance | >0.45 µM
NC(=NCCCNc1ccc2[nH]ccc2c1)N[N+](=O)[O-] | ROD | - | MTT | >360 µM
Nc1nc(Cl)nc2c1ncn2[C@H]1C=C[C@@H](OCP(=O)(O)O)O1 | ROD | - | RT activity | 89.2 µg/mL
NC(N)=NCCCCNc1ccc2[nH]ccc2c1.O=S(O)O | ROD | - | MTT | >213 µM
COc1nc(=O)[nH]c2c1C(c1ccc([N+](=O)[O-])cc1)c1c(OC)nc(=O)[nH]c1O2 | ROD | - | cytopathic effect | >313 µM
COc1ccccc1NC1=NS(=O)(=O)NC(Cc2cccc3ccccc23)=C1 | ROD | - | MTT | >161 µM
CC(=O)c1ccc(C)cc1NC(C(N)=O)c1c(Cl)cccc1Cl | ROD | - | cytopathic effect / MTT | 85.5 µM
CSc1nc2c(c(=O)[nH]1)C(c1ccc([N+](=O)[O-])cc1)c1c(nc(SC)[nH]c1=O)O2 | ROD | - | cytopathic effect | >188.9 µM
NC(=O)c1ccc(NC2=NS(=O)(=O)NC(Cc3ccc4ccccc4c3)=C2)cc1 | ROD | - | MTT | >245 µM
CCc1c(C(C)C2CCCCC2)nc(SCC(=O)c2ccc(OC)cc2)[nH]c1=O | ROD | - | MTT | 30 µM
Nc1ccn([C@@H]2O[C@H](CO)C[C@@H]2F)c(=O)n1 | ROD | - | cytopathic effect / MTT | 2.51 µg/mL
CN(C)C1=NS(=O)(=O)NC(Cc2ccc3ccccc3c2)=C1 | ROD | - | MTT | >268 µM
O=C(N/N=C/c1cc(Br)ccc1O)c1csc(N2N=C(c3ccccc3)CC2c2ccc(Cl)cc2)n1 | ROD | - | MTT / absorbance | >125 µM
COc1nc(Cl)nc2c1ncn2[C@H]1C=C[C@@H](OCP(=O)(O)O)O1 | ROD | - | RT activity | >125 µg/mL
CC(=O)Nc1cccc(C#Cc2cc(C)c(Oc3ccnc(Nc4ccc(C#N)cc4)n3)c(C)c2)c1 | ROD | - | MTT | >0.844 µM
c1cc2cc(NCCCNC3=NCCN3)ccc2[nH]1 | ROD | - | MTT | >166 µM
Cc1cc(C)c(NC2=NS(=O)(=O)NC(Cc3ccccc3)=C2)c(C)c1 | ROD | - | MTT | >191 µM
COc1cc(/C=N/NC(=O)c2csc(N3N=C(c4ccccc4)CC3c3ccc(Cl)cc3)n2)ccc1OCc1ccccc1 | ROD | - | MTT / absorbance | >125 µM
Cc1cn([C@H]2C[C@H](N=[N+]=[N-])[C@@H](CO)O2)c(=O)[nH]c1=O | ROD | - | cytopathic effect / MTT | 0.0007 µM
O=C(N/N=C/c1cccc([N+](=O)[O-])c1)c1csc(N2N=C(c3ccccc3)CC2c2ccc(Cl)cc2)n1 | ROD | - | MTT / absorbance | >0.47 µM
Cc1cn([C@@H]2C=C[C@H](COC(=O)OC[C@H]3O[C@@H](n4cc(C)c(=O)[nH]c4=O)C[C@@H]3N=[N+]=[N-])O2)c(=O)[nH]c1=O | ROD | - | cytopathic effect / MTT | 0.0038 µM
COC(=O)CS(=O)(=O)c1cnc(Nc2ccc(C#N)cc2)nc1Oc1c(C)cc(C#N)cc1C | ROD | - | MTT | >262 µM
CC(C)=NOC(=O)OC[C@H]1O[C@@H](n2cc(C)c(=O)[nH]c2=O)C[C@@H]1N=[N+]=[N-] | ROD | - | cytopathic effect / MTT | 0.073 µM
Nc1nc(N)c2ncn([C@H]3C=C[C@@H](OCP(=O)(O)O)O3)c2n1 | ROD | - | RT activity | 33 µg/mL
CCc1c(CCC2CCCCC2)nc(SCC(=O)c2ccccc2)[nH]c1=O | ROD | - | MTT | 241 µM
NC(N)=NCCCNc1ccc2[nH]ccc2c1.O=S(O)O | ROD | - | MTT | >38.03 µM
C#CCn1c(C(=O)c2cccc3ccccc23)c(CC)c(=O)[nH]c1=O | ROD | - | cytopathic effect / MTT | >4.82 µM
O[C@H]1[C@H](O)[C@@H](O)CN2CC[C@H](O)[C@H]12 | ROD | - | cytopathic effect / MTT | 28.6 µg/mL
COc1ccc(C(=O)CSc2nc(CCC3CCCCC3)cc(=O)[nH]2)cc1 | ROD | - | MTT | 156 µM
Cc1cn([C@H]2C[C@H](N(C)O)[C@@H](CO)O2)c(=O)[nH]c1=O | ROD | - | trypan blue | 0.8 µg/mL
C1CNCCNCCCN[C@@H]([C@H]2CNCCCNCCNCCCN2)CNC1 | ROD | - | cytopathic effect / MTT | 0.62 µg/mL
Cc1cc(C#N)cc(C)c1Oc1nc(Nc2ccc(C#N)cc2)ncc1SCC(=O)N1CCSCC1 | ROD | - | MTT | >242 µM
COc1ccc(CN=C2C=C(Cc3ccc4ccccc4c3)NS(=O)(=O)N2)cc1 | ROD | - | MTT | >148 µM
CCc1c(C(=O)c2cccc3ccccc23)n(C/C=C/C(=O)OC)c(=O)[nH]c1=O | ROD | - | cytopathic effect / MTT | >34.44 µM
Cc1ccnc2c1NC(=O)c1cccnc1N2C1CC1 | ROD | - | cytopathic effect / MTT | >97.6 µM
Cc1c(CCC2CCCCC2)nc(SCC(=O)c2ccc(O)cc2)[nH]c1=O | ROD | - | MTT | 8.2 µM
COc1ccc(NC2=NS(=O)(=O)NC(Cc3ccccc3)=C2)cc1 | ROD | - | MTT | >318 µM
Cc1cc(C#Cc2ccc(N)cc2)cc(C)c1Oc1ccnc(Nc2ccc(C#N)cc2)n1 | ROD | - | MTT | >5.385 µM
COc1cc(NC2=NS(=O)(=O)NC(Cc3ccccc3)=C2)cc(OC)c1OC | ROD | - | MTT | >310 µM
Cc1ccc(/C=C/c2cc(C)c(Oc3ccnc(Nc4ccc(C#N)cc4)n3)c(C)c2)cc1 | ROD | - | MTT | >8.51 µM

The last 8 rows once more:

COc1ccc(CN=C2C=C(Cc3ccc4ccccc4c3)NS(=O)(=O)N2)cc1 ; strain or isolate: ROD ; method: MTT ; result: >148 µM
CCc1c(C(=O)c2cccc3ccccc23)n(C/C=C/C(=O)OC)c(=O)[nH]c1=O ; strain or isolate: ROD ; method: cytopathic effect / MTT ; result: >34.44 µM
Cc1ccnc2c1NC(=O)c1cccnc1N2C1CC1 ; strain or isolate: ROD ; method: cytopathic effect / MTT ; result: >97.6 µM
Cc1c(CCC2CCCCC2)nc(SCC(=O)c2ccc(O)cc2)[nH]c1=O ; strain or isolate: ROD ; method: MTT ; result: 8.2 µM
COc1ccc(NC2=NS(=O)(=O)NC(Cc3ccccc3)=C2)cc1 ; strain or isolate: ROD ; method: MTT ; result: >318 µM
Cc1cc(C#Cc2ccc(N)cc2)cc(C)c1Oc1ccnc(Nc2ccc(C#N)cc2)n1 ; strain or isolate: ROD ; method: MTT ; result: >5.385 µM
COc1cc(NC2=NS(=O)(=O)NC(Cc3ccccc3)=C2)cc(OC)c1OC ; strain or isolate: ROD ; method: MTT ; result: >310 µM
Cc1ccc(/C=C/c2cc(C)c(Oc3ccnc(Nc4ccc(C#N)cc4)n3)c(C)c2)cc1 ; strain or isolate: ROD ; method: MTT ; result: >8.51 µM